A mixed list of measured activities; the numbers were collected in NIAID ChemDB.

Shared fields: growth or infection tests; organism: Mycobacterium tuberculosis

Fold resistance has wild type as its base. ECn is the concentration giving n% inhibition of infection, replication or growth. Neighbouring rows are from separate reports. An empty or dashed field is not shown. MIC50, MIC90 and the like: level of inhibition, or share of isolates inhibited. MIC bound: limit read from a one-dose screen. Inhibition is in % at the dose shown (toxicity tests: loss of growth or viability).

smiles	tested at	strain or isolate	mutations	endpoint	read by	value
Oc1[nH]c2ccc(OC(F)(F)F)cc2c1N=NC(=S)NC1CCCCC1	-	H37Rv	-	EC50	broth dilution / resazurin	33.3 µg/mL
NC1CCN(c2nc3c(cc2F)c(=O)c(C(=O)O)cn3-c2ccc(F)cc2F)C1	-	ATCC 35823	-	MIC	-	>8 µg/mL
CO[C@H]1/C=C/O[C@@]2(C)Oc3c(C)c(O)c4c(=O)c(c5oc6cc(N7CCN(CC(C)C)CC7)cc(=O)c6nc5c4c3=C2O)NC(=O)/C(C)=C\C=C\[C@H](C)[C@H](O)[C@@H](C)[C@@H](O)[C@@H](C)[C@H](OC(C)=O)[C@@H]1C	-	9 (rifampin-resistant)	-	MIC	-	0.025 µg/mL
CCc1nc2ccccc2n1CCCCSc1nnc(-c2ccc(Cl)cc2)o1	-	H37Rv	QcrB M342T	MIC90	turbidity / fluorescence	47 µM
Cc1ncc([N+](=O)[O-])n1CCO	-	H37Rv	-	MIC bound	resazurin	>6.25 µg/mL
COC(=O)C1(C)Cc2ccccc2C(=O)O1	-	18b	-	MIC	resazurin	2 µg/mL
Cc1cccc2c(=O)c3cccc([C@@H](C)C(=O)O)c3oc12	12.5 µg/mL	H37Rv	-	inhibition	BACTEC	0%
CN[C@@H]1[C@H](O[C@H]2[C@H](O[C@H]3[C@H](O)[C@@H](O)[C@H](N=C(N)N)[C@@H](O)[C@@H]3N=C(N)N)O[C@@H](C)[C@]2(O)C=O)O[C@@H](CO)[C@H](O)[C@H]1O	-	H37Rv	EJMCh6C MmpL3  (G253E)	MIC90	visual reading	2 µM
O=C(N/N=C/c1ccco1)c1ccc(F)cc1	-	H37Rv	-	MIC	-	>6.25 µg/mL
CNC(=O)C1C2CC3OC(=O)C1C3C2	-	H37Rv	-	MIC bound	BACTEC	>12.5 µg/mL
CCc1nc2ccccc2n1CCCCOc1ccc(Cl)cc1	-	H37Rv	QcrB M342T	MIC90	turbidity / fluorescence	>100 µM
CCNC(=S)N=Nc1c(O)n(CN2CCOCC2)c2ccc(OC(F)(F)F)cc12	-	H37Rv	-	EC50	broth dilution / resazurin	2.095 µg/mL
Brc1ccc2nc(CCC3CCCCC3)[nH]c2c1	-	H37Rv	6A MmpL3 (V684A)	MIC90	visual reading / absorbance	22.8 µM
COC(=O)/C=C/c1cnc[nH]1	6.25 µg/mL	H37Rv	-	inhibition	-	0%
CC[C@H]1OC(=O)[C@H](C)[C@@H](O[C@H]2C[C@@](C)(OC)[C@@H](O)[C@H](C)O2)[C@H](C)[C@@H](O[C@@H]2O[C@H](C)C[C@H](N(C)C)[C@H]2O)[C@](C)(O)C[C@@H](C)CN(C)[C@H](C)[C@@H](O)[C@]1(C)O	-	MDR	-	MIC50	-	>8 µg/mL
O=C(N/N=C/c1cccs1)c1ccc([N+](=O)[O-])cc1	6.25 µg/mL	H37Rv	-	inhibition	-	0%
O=c1[nH]c2c(Cl)cccc2c(O)c1N=Nc1ccccc1Cl	-	H37Rv	-	MIC	resazurin	>6.25 µg/mL
Clc1ccccc1CNCCNC1CCCCCCC1	-	-	-	MIC	-	25 µM
CC1(C)OC2C3OC(C)(C)OC3C3OC(C)(C)OC3C2O1	-	H37Rv	-	MIC bound	BACTEC	>12.5 µg/mL
CCCCNC(=O)Oc1ccc2c(c1)OC(=O)C2	-	Clinical isolate	-	MIC	resazurin	4 µg/mL
NCC(=O)N/N=C/c1ccc([N+](=O)[O-])o1	-	PZA-R	-	MIC	-	12.5 µg/mL
CCc1nc2ccccc2n1CCCCOc1ccccc1Cl	-	H37Rv	Rv1339 V90M	MIC90	turbidity / fluorescence	5.9 µM
O=CN(Cc1cnccn1)Cc1cnccn1	12.5 µg/mL	H37Rv	-	inhibition	BACTEC	1%
COC(=O)CCc1cnc(C2C3CC4CC(C3)CC2C4)[nH]1	-	H37Rv	-	MIC	-	>6.25 µg/mL
CCc1nc2ccccc2n1CCCCNc1ccc(C)cc1	-	H37Rv	-	MIC99	turbidity / fluorescence	0.5 µM
COc1ccccc1N=Nc1c(-c2cccs2)nn(C(=S)SC)c1C(F)(F)F	-	H37Rv	-	MIC	BACTEC	128 µg/mL
Cc1ccc(NC(=S)N=Nc2c(O)n(CN3CCOCC3)c3ccc(OC(F)(F)F)cc23)cc1	-	H37Rv	-	EC90	broth dilution / resazurin	>100 µg/mL
CC[C@@H](CO)NCCN[C@@H](CC)CO	-	18b	-	MIC	resazurin	1 µg/mL
Cc1cccc(C)c1N=Nc1c(O)c2cc(Cl)ccc2[nH]c1=O	6.25 µg/mL	H37Rv	-	inhibition	resazurin	13%
CC1COc2c(N3CCN(C)CC3)c(F)cc3c(=O)c(C(=O)O)cn1c23	-	ATCC 35827	-	MBC	-	8 µg/mL
C1=C(Nc2ccccc2)C(=Nc2ccccc2)C=C(Nc2ccccc2)C1=Nc1ccccc1	-	H37Rv	-	MIC bound	BACTEC	>12.5 µg/mL
Cc1ccc2[nH]c(O)c(N=NC(=S)Nc3ccc(Cl)cc3)c2c1	-	H37Rv	-	EC90	broth dilution / resazurin	3.568 µg/mL
CO[C@H]1/C=C/O[C@@]2(C)Oc3c(C)c(O)c4c(O)c(c5c(c4c3C2=O)NC2(CCN(CC(C)C)CC2)N=5)=NC(=O)/C(C)=C\C=C\[C@H](C)[C@H](O)[C@@H](C)[C@@H](O)[C@@H](C)[C@H](OC(C)=O)[C@@H]1C	-	3147 (rifampin-sensitive)	-	MIC	-	0.012 µg/mL
N[C@@H]1CN(c2c(F)cc3c(=O)c(C(=O)O)cn([C@@H]4C[C@@H]4F)c3c2Cl)CC12CC2	-	27 strains (levofloxacin-susceptible)	-	MIC90	-	0.1 µg/mL
Cc1cccc(-n2nc([N+](=O)[O-])c(=Nc3ccc(C)cc3C)n2O)c1	-	18b	-	MIC	resazurin	8 µg/mL
c1ccc(CC2CCN(CCNCC34CC5CC(CC(C5)C3)C4)CC2)cc1	-	-	-	MIC	-	9.4 µM
CCOC(=O)C1C2C=CC3CC(=O)N(C(C)c4ccccc4)C31O2	-	Clinical isolate	-	MIC	resazurin	16 µg/mL
NNC(=O)c1ccncc1	-	23 strains (rifampin- isoniazid-susceptible)	-	MIC50	-	≤0.05 µg/mL
CC(=O)Nc1ccc(/C=N/Nc2nc3ccccc3s2)cc1	-	H37Rv	-	MIC bound	BACTEC	>12.5 µg/mL
Oc1c(N=NC(=S)NCc2ccccc2)c2cc(OC(F)(F)F)ccc2n1CN1CCOCC1	-	H37Rv	-	EC50	broth dilution / resazurin	1.001 µg/mL
Cc1c(N2C[C@@H](N)C3(CC3)C2)c(F)c(N)c2c(=O)c(C(=O)O)cn(C3CC3)c12	-	22 strains (rifampin- isoniazid-resistant)	-	MIC50	-	3.13 µg/mL
CCc1nc2ccc(C)cc2n1CCCNc1ccccc1	-	H37Rv	QcrB M342T	fold resistance	turbidity / fluorescence	41
C=CCNC(=S)N=Nc1c(O)n(CN2CCOCC2)c2ccc(OC(F)(F)F)cc12	-	H37Rv	-	EC90	broth dilution / resazurin	>100 µg/mL
CC(C)C1=C(O)C2=C(C(=O)C1=O)[C@@]1(C)CCCC(C)(C)[C@@H]1[C@H](O)[C@H]2OC=O	-	H37Rv	-	MIC bound	BACTEC	>12.5 µg/mL
O=c1[nH]c2c([N+](=O)[O-])cccc2c(O)c1N=Nc1ccc([N+](=O)[O-])cc1	6.25 µg/mL	H37Rv	-	inhibition	resazurin	65%
CC(C)(C)N1OC1c1ccc([N+](=O)[O-])o1	-	H37Rv	-	MIC	BACTEC	≥12.5 µg/mL
O=C(NCCO)N1c2ccccc2Sc2ccccc21	-	Clinical isolate	-	MIC	resazurin	4 µg/mL
C[C@H]1COc2c(N3CCN(C)CC3)c(F)cc3c(=O)c(C(=O)O)cn1c23	-	MDR	-	MIC90	-	4 µg/mL
NCC[C@H](O)C(=O)N[C@@H]1C[C@H](N)[C@@H](O[C@H]2O[C@H](CN)[C@@H](O)[C@H](O)[C@H]2O)[C@H](O)[C@H]1O[C@H]1O[C@H](CO)[C@@H](O)[C@H](N)[C@H]1O	-	MDR8	-	MIC	broth dilution / resazurin	32 µg/mL
CC(=O)Oc1ccccc1C(=O)Nc1ncc([N+](=O)[O-])s1	-	LAM spoligotype 42	-	MIC	visual reading	18.7 µg/mL
O=C(/N=N/C(=O)N1CCOCC1)N1CCOCC1	-	H37Rv	-	MIC bound	BACTEC	>12.5 µg/mL
Cc1cccc(N=Nc2c(O)c3ccc(Cl)c(Cl)c3[nH]c2=O)c1	-	H37Rv	-	MIC	resazurin	<6.25 µg/mL
Clc1ccc(CCNCCNCCc2ccccc2)c(Cl)c1	-	-	-	MIC	-	50 µM
COc1ccc(N=Nc2c(O)c3cc(Cl)ccc3[nH]c2=O)cc1	6.25 µg/mL	H37Rv	-	inhibition	resazurin	55%
CC[C@@H](CO)NCCN[C@@H](CC)CO	-	H37Rv	EJMCh6A MmpL3  (V684A)	MIC90	visual reading / absorbance	7.7 µM
CCCCCCCCCCCCCCCCNc1ccc(CNCCNC[C@@H](C)O)cc1	-	-	-	MIC	-	50 µM
CCCCCCNC(=O)CCc1cnc(C2C3CC4CC(C3)CC2C4)[nH]1	6.25 µg/mL	H37Rv	-	inhibition	-	23%
C[C@H](NCCNC(c1ccccc1)c1ccccc1)C1CCCCC1	-	-	-	MIC	-	50 µM
O=C(N/N=C/c1ccc([N+](=O)[O-])s1)c1ccc([N+](=O)[O-])cc1	6.25 µg/mL	H37Rv	-	inhibition	-	98%
O=c1oc2c(O)c(O)cc3c(=O)oc4c(O)c(O)cc1c4c23	-	H37Rv	-	MIC bound	BACTEC	>12.5 µg/mL
CO[C@H]1/C=C/O[C@@]2(C)Oc3c(C)c(O)c4c(O)c(c(/C=N/N5CCN(C6CCCC6)CC5)c(O)c4c3C2=O)NC(=O)/C(C)=C\C=C\[C@H](C)[C@H](O)[C@@H](C)[C@@H](O)[C@@H](C)[C@H](O)[C@@H]1C	-	Erdman	-	MIC	-	0.06 µg/mL
CO[C@@H]1/C=C\C=C(/C)C(=O)NC2=CC(=O)C(NCCCl)=C(C[C@@H](C)C[C@@H](OC)[C@H](O)[C@H](C)/C=C(\C)[C@H]1OC(N)=O)C2=O	-	H37Rv	-	MIC	BACTEC	≥12.5 µg/mL
CC(C)=CCC/C(C)=C/CNCCNCc1cccc2ccccc12	-	-	-	MIC	-	50 µM
COc1cc(OC)c2cc([N+](=O)[O-])c3ccc(=O)oc3c2c1	-	H37RvEr	-	MIC	resazurin	50 µg/mL
CCc1nc2ccccc2n1CCCCNc1ccc(-c2ccccn2)cc1	-	H37Rv	Rv1339 V90M	MIC90	turbidity / fluorescence	6.3 µM
C[C@@](O)(/C=C/[C@H]1CC=CC(=O)O1)[C@@H](C[C@@H](O)\C=C/C=C\C=C\CO)OP(=O)(O)O	12.5 µg/mL	H37Rv	-	inhibition	BACTEC	22%
O=C(O)c1nc(C2CCCC2)[nH]c1C1CCCC1	6.25 µg/mL	H37Rv	-	inhibition	-	0%
COc1ccc(C(=O)Cc2nc3nnc(N)n3nc2CC(=O)c2ccc(OC)cc2)cc1	12.5 µg/mL	H37Rv	-	inhibition	BACTEC	13%
C=CCN(CCNC/C=C(\C)CC=C(C)C)C1CCCC1	-	-	-	MIC	-	12.5 µM
C=C(Cl)CN(CC(=C)Cl)NC(C)=O	-	H37Rv	-	MIC bound	BACTEC	>12.5 µg/mL
NC(=O)c1cnccn1	-	TB189	-	MIC	-	<25 µg/mL
O=C(N/N=C/c1ccccc1O)c1ccc(F)cc1	6.25 µg/mL	H37Rv	-	inhibition	-	17%
C/C(=N/n1cc(-c2ccccc2)nc1N)c1ccccc1	-	H37Rv	-	MIC bound	BACTEC	>12.5 µg/mL
C[C@@H]1Cn2cc(C(=O)O)c(=O)c3cc(F)c(N4CCN(/C(N)=N/C(N)=NCCCCCCN=C(N)/N=C(\N)N5CCN(c6c(F)cc7c(=O)c(C(=O)O)cn8c7c6O[C@@H](C)C8)CC5)CC4)c(c32)O1	-	ATCC 35822	-	MIC	broth dilution	1.25 µg/mL
COC(=O)CCc1cnc[nH]1	-	H37Rv	-	MIC	-	>6.25 µg/mL
COc1cc2c3c(cc4cc5c(cc4c3c1OC)OCO5)N(C=O)CC2	-	H37RvIr	-	MIC	resazurin	>50 µg/mL
Cc1ccc(S(=O)(=O)N2CCSCCN(S(=O)(=O)c3ccc(C)cc3)CCN(S(=O)(=O)c3ccc(C)cc3)CC2)cc1	6.25 µg/mL	H37Rv	-	inhibition	resazurin	18%
CCCCCCCCCCCNCCNCCCCO	-	-	-	MIC	-	50 µM
O=C1c2ccccc2-c2nn(C(=O)c3ccccc3)c3cccc1c23	-	Clinical isolate	-	MIC	resazurin	8 µg/mL
Cc1cccc(C)c1N=Nc1c(O)c2cccc([N+](=O)[O-])c2[nH]c1=O	6.25 µg/mL	H37Rv	-	inhibition	resazurin	22%
COC(=O)C(=O)c1c(C(=O)OC)nc2[nH]n(-c3ccccc3)c(=O)c2c1-c1cccc2ccccc12	-	H37Rv	-	MIC	BACTEC	≥12.5 µg/mL
CC1(C(=O)Nc2cccc(Cl)c2Cl)Cc2ccccc2C(=O)O1	-	Clinical isolate	-	MIC	resazurin	4 µg/mL

7 of the rows above, restated:

| smiles | tested at | strain or isolate | mutations | endpoint | read by | value |
|---|---|---|---|---|---|---|
| CC1(C)OC2C3OC(C)(C)OC3C3OC(C)(C)OC3C2O1 | - | H37Rv | - | MIC bound | BACTEC | >12.5 µg/mL |
| O=c1[nH]c2c([N+](=O)[O-])cccc2c(O)c1N=Nc1ccc([N+](=O)[O-])cc1 | 6.25 µg/mL | H37Rv | - | inhibition | resazurin | 65% |
| C=CCNC(=S)N=Nc1c(O)n(CN2CCOCC2)c2ccc(OC(F)(F)F)cc12 | - | H37Rv | - | EC90 | broth dilution / resazurin | >100 µg/mL |
| CCCCCCCCCCCCCCCCNc1ccc(CNCCNC[C@@H](C)O)cc1 | - | - | - | MIC | - | 50 µM |
| CC(C)C1=C(O)C2=C(C(=O)C1=O)[C@@]1(C)CCCC(C)(C)[C@@H]1[C@H](O)[C@H]2OC=O | - | H37Rv | - | MIC bound | BACTEC | >12.5 µg/mL |
| C1=C(Nc2ccccc2)C(=Nc2ccccc2)C=C(Nc2ccccc2)C1=Nc1ccccc1 | - | H37Rv | - | MIC bound | BACTEC | >12.5 µg/mL |
| CC[C@H]1OC(=O)[C@H](C)[C@@H](O[C@H]2C[C@@](C)(OC)[C@@H](O)[C@H](C)O2)[C@H](C)[C@@H](O[C@@H]2O[C@H](C)C[C@H](N(C)C)[C@H]2O)[C@](C)(O)C[C@@H](C)CN(C)[C@H](C)[C@@H](O)[C@]1(C)O | - | MDR | - | MIC50 | - | >8 µg/mL |